Results reported in PMC3928424.

Molecular target: NA of H1N1 I222V mutant (isolate 1) (Influenza A virus, UniProt A0A1U9HZA1, I223V)

`CC(=O)N[C@H]1[C@H]([C@H](O)[C@H](O)CO)OC(C(=O)O)=C[C@@H]1N=C(N)N` was tested, and the IC50 was 8.5 nM.
